Data taken from the supplement of paper PMC9931576.
Human monoclonal antibodies against the spike receptor-binding domain (heavy:light variable regions). IC50 against pseudoviruses bearing the spike of naturally observed variants; lower = stronger; >10 µg/ml means not reached at the top dose. No active / inactive call. The stated detection limit is 0.0005 µg/ml; values near or below 0.001 µg/ml lie at the floor of the assay.

B1: BD56-495 (protein)
chain 1: QVQLVESGGGVVQPGRSLRLSCEASGFIFSSSAMHWVRQAPGKGLEWVAVISHDGGNEYYADSVKGRFTISRDNSKNTLYLQMNSLRVEDTAVYYCTKDRFLEWLLYSDFQYWGQGTLVTVSA
chain 2: DIQMTQSPSSLSASVGDRVTITCRASQNINNYLNWYQQKPGKAPKLLIYAASSLQSGVPSRFSGSGSGTDFTLTISSLQPEDFATYYCQQSDTFGQGTKLEIK
B2: BD56-496 (protein)
chain 1: QVQLVESGGGVVQPGRSLRLSCAASGFTFSSYTMHWVRQVPGKGLEWVAIISNDGTYKDYADSVKGRFTISRDNSKNTLYLQMNSLRPEDRAVYYCARDSDIVTTILFDYWGQGTLVTVSS
chain 2: DIQMTQSPSSLSASVGDRVTITCRASQSISRFLNWYQQKPGKAPKLLIYAASSLQSGVPSRFRGSGSGTNFTLTISSLQPEDFATYYCQQSYVNPQVTFGQGTRLEIK
B3: BD56-502 (protein)
chain 1: EVQLVESGGGLVKPGGSLRLSCAASGFTFSTYSMNWVRQAPGKGLEWVSSISGNTSYIYFADSVKGRFTISRDNAKNSLYLQMRSLRAEDTAVYYCARDTGQTGAYSSGWYDFHRPGLNWFDPWGQGTLVTVSS
chain 2: QSVLTQPPSASGTPGQRVTISCFGSSSNVGSNTVSWYQQLPGTAPKLLIYSNNQRPSGVPDRFSGSKSGTSASLAISGLQSEDEADYYCAAWDDSLNGAWVFGGGTKLTVL
B4: BD56-503 (protein)
chain 1: QVTLRESGPALVKPTQTLTLTCTFSGFSFISNMSVSWVRQPPGKALEWLARIDWDDDKYYNRSLKTRLTISKDTSKNQVVLTMTNMDPVDTATYYCAREQWLVQRDYYGMDVWGQGTTVTVSS
chain 2: SYELTQPPSVSVSPGQTARITCSGNALAKQYGYWYQQKPGQAPVLVIYRDGERPSGIPERFSGSSSGTTVTLTISGVRAEDEADYYCQSADNGGSVFGGGTKLTVL
B5: BD56-507 (protein)
chain 1: QVHLVQSGAEVKKPGASVKVSCKASGYTFSSYAISWVRQAPGQGLEWMGWITTYNGDTTYSEKLQGRVTMTTDTSTSTAYMDLRSLRSDDTAVYYCARDPGLYCSGVSCYREHDAFDFWGQGTMVTVSS
chain 2: EIVLTQSPATLSLSPGERATLSCRASQSVRGYLAWYQQKPGQAPRLLIYDSSNRATGVPARFTGSGSGADFTLSISSLEPEDYAVYYCQHRSNWPRPTFGGGTKVEIK
B6: BD56-516 (protein)
chain 1: QVQLVQSGSELKKPGASVKVSCKASGYTFTNHAMNWVRQAPGQGLEWMGWINTNTGDPLYAQGFTGRFVFSLDTSVSTAYLQISSLKAEDTAVYYCARDSGLLSFGQLFHAFDLWGQGTMVTVSS
chain 2: EIVLTQSPATLSLSPGERATLSCRASQSVNNYLAWYQQKPGQAPRLLIYDASHRATGIPGRFSGSGSGTDFTLTISSLEPEDFAVYYCQQRNNWLWTFGQGTKVEIK

target: SARS-CoV-2 Omicron BA.1 spike pseudovirus; experiment: pseudovirus neutralization IC50; higher = weaker neutralization
Protocol: (§1)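 Single-round VSV luciferase pseudovirus mixed with antibody dilutions for 1 h and put on Huh-7 cells for about a day; IC50 from the dose curve.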

Compared with B1, B2 is 3.3-fold higher in “pseudovirus neutralization IC50” value: 2.1 µg/mL for the first, 6.9 µg/mL for the second.

Compared with B3, B4 is higher in “pseudovirus neutralization IC50” value: 1.3 µg/mL for the first, > 10 µg/mL for the second.

Going from B5 to B6, the “pseudovirus neutralization IC50” value falls from 0.375 µg/mL to 0.011 µg/mL (34-fold).

target: SARS-CoV-2 Omicron BA.2 spike pseudovirus; experiment: as above
Protocol: as §1

B1 and B2 are within 1.5-fold of each other in “pseudovirus neutralization IC50” value: 5.49 µg/mL for the first, 7.38 µg/mL for the second.

Going from B3 to B4, the “pseudovirus neutralization IC50” value rises from 1.61 µg/mL to > 10 µg/mL.

B5 and B6 are within 1.5-fold of each other in “pseudovirus neutralization IC50” value: 0.0267 µg/mL for the first, 0.0277 µg/mL for the second.

target: SARS-CoV-2 Omicron BA.2.75 spike pseudovirus; experiment: as above
Protocol: as §1

Compared with B1, B2 is lower in “pseudovirus neutralization IC50” value: > 10 µg/mL for the first, 5.04 µg/mL for the second.

Going from B3 to B4, the “pseudovirus neutralization IC50” value rises from 1.44 µg/mL to > 10 µg/mL.

Compared with B5, B6 is higher in “pseudovirus neutralization IC50” value: 0.0355 µg/mL for the first, > 10 µg/mL for the second.

target: SARS-CoV-2 Omicron BA.5 spike pseudovirus; experiment: as above
Protocol: as §1

B1 and B2 are within 1.5-fold of each other in “pseudovirus neutralization IC50” value: 5.28 µg/mL for the first, 7.1 µg/mL for the second.

Going from B3 to B4, the “pseudovirus neutralization IC50” value rises from 5.57 µg/mL to > 10 µg/mL.

Going from B5 to B6, the “pseudovirus neutralization IC50” value falls from > 10 µg/mL to 8.48 µg/mL.

target: SARS-CoV-2 Omicron BQ.1.1 spike pseudovirus; experiment: as above
Protocol: as §1

Going from B1 to B2, the “pseudovirus neutralization IC50” value falls from > 10 µg/mL to 7.13 µg/mL.

B3 and B4 cannot be ordered by “pseudovirus neutralization IC50” value: > 10 µg/mL for the first, > 10 µg/mL for the second.

B5 and B6 cannot be ordered by “pseudovirus neutralization IC50” value: > 10 µg/mL for the first, > 10 µg/mL for the second.

target: SARS-CoV-2 Omicron XBB spike pseudovirus; experiment: as above
Protocol: as §1

Compared with B1, B2 is lower in “pseudovirus neutralization IC50” value: > 10 µg/mL for the first, 7.55 µg/mL for the second.

B3 and B4 cannot be ordered by “pseudovirus neutralization IC50” value: > 10 µg/mL for the first, > 10 µg/mL for the second.

B5 and B6 cannot be ordered by “pseudovirus neutralization IC50” value: > 10 µg/mL for the first, > 10 µg/mL for the second.

target: SARS-CoV-2 early D614G spike pseudovirus; experiment: as above
Protocol: as §1

First: B1
Second: B2
The “pseudovirus neutralization IC50” value of the first is 1.8-fold lower: 0.905 µg/mL for the first, 1.61 µg/mL for the second.

Going from B3 to B4, the “pseudovirus neutralization IC50” value rises from 0.285 µg/mL to > 10 µg/mL.

Going from B5 to B6, the “pseudovirus neutralization IC50” value rises from 0.011 µg/mL to 0.0263 µg/mL (2.4-fold).
